PubChem BioAssay AID624099, ICCB-Longwood | 2012

Aim: 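Host factors E2 relies on to silence an HPV18 LCR reporter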 (primary screen)
Cell system: human C33A cervical carcinoma cells (HPV-negative) stably expressing BPV1 E2 and an HPV18 LCR luciferase reporter
Reagent: siRNA pool against human genes, 40 nM
Duration: 72 h
Measurement: 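Per-well luciferase luminescence, z-scored on each plate against the plate mean and SD with control wells left out, then averaged across three replicate plates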
Scale: mean z-score and z-score: higher = stronger reporter signal, weaker E2 silencing
Active means: 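Mean z ≥ 2 together with z ≥ 2 in two or more of the three replicates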
The deposit covers about 21,000 reagents; this is a random part of them. 497 of all reagents (2.4%) were called active. 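Higher z means weaker E2 silencing; only reporter increases were scored, and knock-downs that hurt cell survival may mask genuine repressor factors.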 The numbers tell different reagents against one gene apart. No sequences are given here.

| gene knocked down | reagent no. | mean z-score | z-score, replicate A | z-score, replicate B | z-score, replicate C | activity call |
| --- | --- | --- | --- | --- | --- | --- |
| MCM4 | 1 | 1.02 | 0.76 | 1.06 | 1.25 | inactive |
| SH3BGRL3 | 1 | -1.08 | -0.95 | -1.13 | -1.17 | inactive |
| PSMD6 | 1 | 0.32 | 0.27 | 0.19 | 0.51 | inactive |
| KHDC3L | 1 | -0.41 | -0.65 | -0.38 | -0.21 | inactive |
| IQCK | 1 | -0.02 | -0.09 | -0.06 | 0.1 | inactive |
| KRT76 | 1 | 0.71 | 0.91 | 0.6 | 0.62 | inactive |
| PIAS4 | 1 | -0.25 | -0.2 | -0.11 | -0.43 | inactive |
| SYT11 | 1 | -0.14 | 0.31 | -0.3 | -0.41 | inactive |
| PROK2 | 1 | -0.69 | -0.3 | -0.38 | -1.38 | inactive |
| DUSP29 | 1 | -0.32 | -0.22 | -0.16 | -0.6 | inactive |
| ACER2 | 1 | 0.96 | 1.05 | 0.93 | 0.9 | inactive |
| PRY2 | 1 | -0.5 | -0.48 | -1.04 | 0.01 | inactive |
| ENC1 | 1 | 0.23 | 0.42 | 0.31 | -0.04 | inactive |
| EFCAB14 | 1 | -0.93 | -0.34 | -0.87 | -1.56 | inactive |
| LINC01721 | 1 | -0.36 | -0.55 | -0.33 | -0.21 | inactive |
| PIP4P2 | 1 | 0.01 | 0 | 0.46 | -0.42 | inactive |
| ICMT | 1 | -1.37 | -0.99 | -1.65 | -1.47 | inactive |
| METRNL | 1 | 0.33 | 0.26 | 0.39 | 0.33 | inactive |
| SPRR3 | 1 | -0.16 | -0.08 | -0.25 | -0.15 | inactive |
| DDRGK1 | 1 | -0.47 | -0.42 | -0.44 | -0.55 | inactive |
| MMD | 1 | 0.72 | 0.65 | 0.73 | 0.78 | inactive |
| OSGIN1 | 1 | 0.25 | -0.61 | 0.14 | 1.21 | inactive |
| OR1E1 | 1 | -1.95 | -2.14 | -1.99 | -1.72 | inactive |
| SLC71A2 | 1 | -0.06 | -0.16 | 0.02 | -0.05 | inactive |
| VAMP4 | 1 | 1.95 | 1.6 | 2.04 | 2.2 | inactive |
| SRBD1 | 1 | -1.1 | -1.04 | -1.27 | -1 | inactive |
| DPP10 | 1 | -0.37 | -0.76 | -0.25 | -0.11 | inactive |
| PKM | 1 | 3.01 | 3.43 | 2.69 | 2.91 | active |
| TMEM51-AS1 | 1 | 0.71 | 1.04 | 0.45 | 0.63 | inactive |
| GPR18 | 1 | -1.88 | -1.72 | -1.93 | -1.98 | inactive |
| DSN1 | 1 | 0.62 | 0.8 | 0.46 | 0.62 | inactive |
| STXBP5 | 1 | -0.56 | -0.77 | -0.58 | -0.32 | inactive |
| ACOT11 | 1 | 1.57 | 1.43 | 1.55 | 1.73 | inactive |
| FGF14 | 1 | 1.09 | 0.99 | 1.26 | 1.02 | inactive |
| CDK10 | 1 | -1.22 | -1.13 | -1.42 | -1.11 | inactive |
| FCRL4 | 1 | 1.48 | 1.16 | 1.52 | 1.77 | inactive |
| TCF19 | 1 | -0.87 | -1.03 | -0.6 | -0.99 | inactive |
| NOBOX | 1 | 0.6 | 0.8 | 0.55 | 0.46 | inactive |
| NOBOX | 2 | 0.05 | 0.19 | -0.25 | 0.22 | inactive |
| LOC388508 (retired record) | 1 | -0.38 | -0.27 | -0.69 | -0.19 | inactive |
| BCAT1 | 1 | 0.47 | 0.85 | 0.44 | 0.13 | inactive |
| LMTK3 | 1 | 0.93 | 1.08 | 0.69 | 1.01 | inactive |
| RDM1 | 1 | 0.25 | 0.09 | 0.17 | 0.49 | inactive |
| RBX1 | 1 | -0.59 | -0.24 | -0.8 | -0.72 | inactive |
| HRC | 1 | 1.09 | 0.85 | 0.97 | 1.46 | inactive |
| CCNO | 1 | -0.8 | -0.67 | -0.89 | -0.84 | inactive |
| PDPR | 1 | -1.96 | -2.22 | -2.05 | -1.6 | inactive |
| GPNMB | 1 | 0.41 | 0.34 | 0.38 | 0.5 | inactive |
| NR1I2 | 1 | 0.62 | 0.37 | 0.87 | 0.63 | inactive |
| STAM2 | 1 | 0.63 | 0.82 | 0.43 | 0.64 | inactive |
| SCAPER | 1 | 1.8 | 2.29 | 1.71 | 1.4 | inactive |
| UNC45A | 1 | -0.71 | -0.83 | -0.46 | -0.83 | inactive |
| USP24 | 1 | -0.92 | -0.84 | -0.82 | -1.1 | inactive |
| HDAC7 | 1 | 0.15 | 0.39 | 0.06 | 0 | inactive |
| POLD3 | 1 | 2.97 | 3.21 | 2.57 | 3.12 | active |
| AGER | 1 | -0.38 | -0.24 | -0.4 | -0.49 | inactive |
| ZNF354C | 1 | 1.3 | 1.35 | 1.33 | 1.22 | inactive |

9 entries already listed, sorted by “z-score, replicate B”, low to high.
| gene knocked down | reagent no. | mean z-score | z-score, replicate A | z-score, replicate B | z-score, replicate C | activity call |
| --- | --- | --- | --- | --- | --- | --- |
| PDPR | 1 | -1.96 | -2.22 | -2.05 | -1.6 | inactive |
| USP24 | 1 | -0.92 | -0.84 | -0.82 | -1.1 | inactive |
| UNC45A | 1 | -0.71 | -0.83 | -0.46 | -0.83 | inactive |
| HDAC7 | 1 | 0.15 | 0.39 | 0.06 | 0 | inactive |
| GPNMB | 1 | 0.41 | 0.34 | 0.38 | 0.5 | inactive |
| STAM2 | 1 | 0.63 | 0.82 | 0.43 | 0.64 | inactive |
| NR1I2 | 1 | 0.62 | 0.37 | 0.87 | 0.63 | inactive |
| SCAPER | 1 | 1.8 | 2.29 | 1.71 | 1.4 | inactive |
| POLD3 | 1 | 2.97 | 3.21 | 2.57 | 3.12 | active |
